According to paper PMC12510174 (International Journal of Biological Sciences, 2025):

Tested on: RB cells

SMILES: O=c1c(-c2ccc(O)cc2)coc2cc(O)cc(O)c12 [genistein]
- reduction of Pri-MP uptake relative to vehicle controls: < 10%
